Anti-infective test results gathered from many reports (values: NIAID ChemDB through PubChem).

Shared fields: tests in culture; species: Mycobacterium tuberculosis

Neighbouring rows are from separate reports. Two numbers with a dash give a range or band. Percent inhibition refers to the dose given; in toxicity tests it is the harm to the cells. A number after MIC or MFC names an inhibition level or a share of isolates. An empty or dashed field is not shown. MIC bound: limit read from a one-dose screen.

SMILES | conditions | mutations | cell line | dose | strain or isolate | method | endpoint | value
CCCCOc1ccc2nccc(N/N=C/c3ccc(OC)c4ccccc34)c2c1 |  |  | VERO |  | H37Rv |  | MIC | 6.25 µg/mL
CO[C@H]1/C=C/O[C@@]2(C)Oc3c(C)c(O)c4c(=O)c(c5oc6cc(N7CCN(CC(C)C)CC7)cc(=O)c6nc5c4c3=C2O)NC(=O)/C(C)=C\C=C\[C@H](C)[C@H](O)[C@@H](C)[C@@H](O)[C@@H](C)[C@H](OC(C)=O)[C@@H]1C |  |  |  |  | 2242 (rifampicin-susceptible) |  | MBC | 0.03 µg/mL
CC(C)Cc1ccc(C(=O)CCC(=O)NC[C@H]2CN(c3ccc(N4CCCCC4)c(F)c3)C(=O)O2)cc1 |  |  |  |  | 10 clinical isolates resistant |  | MIC | >16 µg/mL
CC1COc2c(N3CCN(C)CC3)c(F)cc3c(=O)c(C(=O)O)cn1c23 |  |  |  |  | SMI12 | agar | MIC | 1 µg/mL
Fc1ccc2oc(=S)n(-c3ccc(Br)cc3)c(=S)c2c1 | 14 d |  |  |  | My 331/88 |  | MIC | 1 µM
CO[C@H]1/C=C/O[C@@]2(C)Oc3c(C)c(O)c4c(O)c(c(/C=N/N5CCN(C6CCCC6)CC5)c(O)c4c3C2=O)NC(=O)/C(C)=C\C=C\[C@H](C)[C@H](O)[C@@H](C)[C@@H](O)[C@@H](C)[C@H](O)[C@@H]1C |  |  |  |  | Isolate 900240 drug-susceptible |  | MIC | 0.5 µg/mL
CCCCNC(=O)c1ncccc1C(=O)O |  |  |  |  | H37Rv | resazurin | MIC bound | >6.25 µg/mL
NC[C@H]1O[C@H](O[C@H]2[C@H](O)[C@@H](O[C@H]3O[C@H](CO)[C@@H](O)[C@H](N)[C@H]3O)[C@H](N)C[C@@H]2N)[C@H](O)[C@@H](O)[C@@H]1O |  |  |  |  | Isolate 3 |  | MIC | 4 µg/mL
CO/C(=N\N=C\c1ccc(C(F)(F)F)cc1)c1ccncc1 |  |  |  |  | 16PI |  | MIC | >20 µg/mL
CCCCCc1cc(OC)c2ccccc2n1 |  |  |  |  | MT1 |  | MIC | 21 µg/mL
COc1ccc2nc(-c3ccccc3)cc(NN)c2c1 |  |  | VERO |  | H37Rv |  | MIC | 6.25 µg/mL
Nc1ccc2c(c1)CN1C(=O)c3ccccc3C1=N2 |  |  |  |  | H37Rv | BACTEC | MIC bound | >12.5 µg/mL
CO/N=C1\CN(c2nc3c(cc2F)c(=O)c(C(=O)O)cn3C2CC2)CC1CN |  |  |  |  | 206 isolates (susceptible) |  | MIC90 | 8 µg/mL
O=C1CC(c2ccccc2)=NN1 |  |  |  |  |  |  | MIC | >200 µg/mL
O=c1oc2ccc(F)cc2c(=O)n1-c1cccc([N+](=O)[O-])c1 |  |  |  |  | CNCTC MY331/88 |  | MIC | 16 µM
C[C@H]1C[C@H](N)CN1c1cc2c(cc1F)c(=O)c(C(=O)O)cn2-c1ccc(F)cc1F |  |  |  |  | ATCC 35826 |  | MIC | 1 µg/mL
CO[C@H]1/C=C/O[C@@]2(C)Oc3c(C)c(O)c4c(O)c(c5c(c4c3C2=O)NC2(CCN(CC(C)C)CC2)N=5)=NC(=O)/C(C)=C\C=C\[C@H](C)[C@H](O)[C@@H](C)[C@@H](O)[C@@H](C)[C@H](OC(C)=O)[C@@H]1C |  |  |  |  | Strain 123-134 (S531L/F) |  | MIC | 24 µg/mL
COc1ccc2c(=O)n(-c3ccc(Cl)c(Cl)c3)c(=O)oc2c1 |  |  |  |  | CNCTC MY331/88 |  | MIC | 16 µM
O=c1[nH]nc(-c2ccccc2Cl)[nH]1 |  |  |  |  |  |  | MIC | >40 µg/mL
CSc1ccc(C(=O)CCC(=O)NC[C@H]2CN(c3ccc(N4CCOCC4)c(F)c3)C(=O)O2)cc1 |  |  |  |  | 10 clinical isolates resistant |  | MIC | 0.5 µg/mL
Fc1ccc(-c2c(C(c3ccccc3)n3ccnc3)cnn2-c2ccccc2)cc1 |  |  |  |  | ATCC 35822 (isoniazid-resistant) |  | MIC50 | ≥100 µM
Cc1c(F)c(N2CCNC(C)C2)cc2c1c(=O)c(C(=O)O)cn2C1CC1 |  |  |  |  | 206 isolates (susceptible) |  | Mean MIC | 0.782 µg/mL
CCCCC(NC(=O)C1CCCN1C(=O)OCc1ccccc1)C(=O)OCc1ccccc1 |  |  |  |  | H37Rv | BACTEC | MIC bound | >12.5 µg/mL
C/C(=N\NC(=O)c1ccncc1)c1cccc(C(F)(F)F)c1 |  |  |  |  | 6 PI |  | MIC | >20 µg/mL
Cc1cnc(C)c(NS(=O)(=O)c2ccc(N)cc2)n1 |  |  |  |  | H37Rv | BACTEC | MIC bound | >12.5 µg/mL
Cc1cc(-c2cc3c(cc2F)c(=O)c(C(=O)O)cn3C2CC2)cc(C)n1 |  |  |  |  | 131-4 |  | MIC | 2 µg/mL
CC(=O)O[C@@]1(C)C(=O)OC/C2=C/CN(C)CC[C@@H](OC(=O)[C@@](O)([C@H](C)Cl)C[C@H]1C)C2=O.c1ccccc1 |  |  |  |  | H37Rv | BACTEC | MIC bound | >12.5 µg/mL
C/C(=N\NC(=O)c1ccncc1)c1ccc(F)cc1 |  |  |  |  | 6 PI |  | MIC | >20 µg/mL
Cc1[nH]c2c(ccc3c2ccc2c(=O)c(C)c(C)[nH]c23)c(=O)c1C |  |  |  | 6.25 µg/mL | H37Rv |  | inhibition | -14%
Clc1ccc(-c2c(C(c3ccccc3)n3ccnc3)cnn2-c2ccc(Cl)cc2Cl)cc1 |  |  |  |  | ATCC 35837 (ethambutol-resistant) |  | MIC90 | ≥100 µM
COc1ccc2oc(=O)n(-c3cccc(Cl)c3)c(=S)c2c1 | 21 d |  |  |  | My 331/88 |  | MIC | 32 µM
CC(=O)NNS(=O)(=O)c1ccc(Cl)cc1 |  |  |  |  |  |  | MIC | >200 µg/mL
CCN(CC)c1ccc(/C=N/Nc2ccnc3cc(OC)ccc23)cc1 |  |  | VERO | 12.5 µg/mL | H37Rv |  | inhibition | 100%
C[C@H]1COc2c(N3CCN(C)CC3)c(F)cc3c(=O)c(C(=O)O)cn1c23 |  |  |  |  | ATCC 35827 |  | MBC | 1 µg/mL
COc1cc2ccc(=O)oc2cc1O |  |  |  | 12.5 µg/mL | H37Rv | BACTEC | inhibition | -2%
Cc1ccc2oc(=S)n(-c3ccccc3)c(=S)c2c1 | 21 d |  |  |  | My 331/88 |  | MIC | 1 µM
Clc1ccc(-n2ncc(C(c3ccccc3)n3ccnc3)c2-c2ccccc2)cc1 |  |  |  |  | ATCC 35822 (isoniazid-resistant) |  | MIC50 | ≥100 µM
CCCCCCCOC(=O)n1[nH]c(=O)c2ccccc2c1=O |  |  |  |  |  |  | MIC | >200 µg/mL
CC(=O)C1=C(O)C2(C)c3c(O)c(C)c(O)c(C(C)=O)c3OC2CC1=O |  |  |  | 12.5 µg/mL | H37Rv | BACTEC | inhibition | 99%
Clc1ccccc1C(c1ccccc1)(c1ccccc1)n1ccnc1 |  |  |  |  | ATCC 35822 (isoniazid-resistant) |  | MIC50 | ≥100 µM
CC[C@H]1OC(=O)[C@H](C)[C@@H](O[C@H]2C[C@@](C)(OC)[C@@H](O)[C@H](C)O2)[C@H](C)[C@@H](O[C@@H]2O[C@H](C)C[C@H](N(C)C)[C@H]2O)[C@](C)(OC)C[C@@H](C)C(=O)[C@H](C)[C@@H](O)[C@]1(C)O |  |  |  |  | MDR-2037 (MDR) |  | MIC | 8 µg/mL
Fc1ccc(-n2ncc(C(c3ccccc3)n3ccnc3)c2-c2ccccc2)c(F)c1 |  |  |  |  | ATCC 35822 (isoniazid-resistant) |  | MIC50 | ≥100 µM
O=c1oc2ccc(Br)cc2c(=S)n1-c1ccc(Cl)cc1 | 21 d |  |  |  | My 331/88 |  | MIC | 1 µM
Cc1c(SC(Cl)(Cl)Cl)cc([N+](=O)[O-])c(N(C)C)c1[N+](=O)[O-] |  |  |  | 12.5 µg/mL | H37Rv | BACTEC | inhibition | 24%
NC(=O)c1cnccn1 |  |  |  |  | T494/NIACIN+ |  | MIC | >2048 µg/mL
COc1ccc2nc(-c3ccccc3)cc(N/N=C/c3ccc(NC(C)=O)cc3)c2c1 |  |  | VERO | 12.5 µg/mL | H37Rv |  | inhibition | 95%
CO/C(=N\N=C\c1ccc(OC)cc1OC)c1ccncc1 |  |  |  |  | H37Rv |  | MIC | >20 µg/mL
N/C(C/C(=N/OC(=O)c1ccccc1)OC(=O)c1ccccc1)=N/O |  |  |  | 6.25 µg/mL | H37Rv | resazurin | inhibition | 33%
CC[C@@H](CO)NCCN[C@@H](CC)CO |  |  |  |  | Isolate 15 |  | MIC | 1 µg/mL
CC1Nc2c(ccc3ncccc23)C(=O)N1Nc1ccccc1 |  |  |  |  | H37Rv | BACTEC | MIC bound | >12.5 µg/mL
O=c1oc2ccc(Br)cc2c(=S)n1-c1cccc(Cl)c1 | 14 d |  |  |  | My 331/88 |  | MIC | 0.5 µM
C[C@@H]1CN(c2c(F)c(N)c3c(=O)c(C(=O)O)cn(C4CC4)c3c2F)C[C@H](C)N1 |  |  |  |  | S-6M (susceptible) |  | MIC | 0.2 µg/mL
CCC(C)C(NC(=O)CNC(=O)CNC(=O)OCc1ccccc1)C(=O)O |  |  |  |  | H37Rv | BACTEC | MIC bound | >12.5 µg/mL
CCN(CC)CCCN=c1cc2n(-c3ccc(Cl)c(Cl)c3)c3ccccc3nc-2cc1Nc1ccc(Cl)c(Cl)c1 | multidrug-resistant |  |  |  | 2227 |  | MIC | 0.25 µg/mL
NNC(=O)c1ccncc1 |  |  |  |  | RifR | resazurin | MIC | 50–100 µg/mL
C[C@H]1COc2c(N3CCN(C)CC3)c(F)cc3c(=O)c(C(=O)O)cn1c23 |  |  |  |  | Isolate 15 |  | MIC | 0.25 µg/mL
CCSSC1(C)C(=O)N2CCCC2C(=O)N1C |  |  |  |  | H37Rv | BACTEC | MIC bound | >12.5 µg/mL
Cc1ccc2c(=O)n(-c3ccc(N(C)C)cc3)c(=O)oc2c1 |  |  |  |  | CNCTC MY331/88 |  | MIC | 31 µM
C/C(O)=C(\C=NC(=S)c1ccncc1)C(=O)Nc1ccccc1 |  |  |  | 6.25 µg/mL | H37Rv | resazurin | inhibition | -139%
NNC(=O)c1ccncc1 |  | Multidrug-resistant |  |  | FJ05189 | resazurin | MIC | <0.5 µg/mL
CC1SC2=NC3=C(c4ccccc4C3=O)C(c3ccccc3Cl)N2C1=O |  |  |  | 12.5 µg/mL | H37Rv | BACTEC | inhibition | 0%
Fc1ccccc1-c1c(C(c2ccccc2)n2ccnc2)cnn1-c1ccccc1F |  |  |  |  | ATCC 35822 (isoniazid-resistant) |  | MIC50 | ≥100 µM
C[C@H]1COc2c(N3CCN(C)CC3)c(F)cc3c(=O)c(C(=O)O)cn1c23 |  |  |  |  | 6S |  | MIC | 0.5 µg/mL
O=C(CCC(=O)c1ccc(Cl)cc1)NC[C@H]1CN(c2ccc(-n3cncn3)c(F)c2)C(=O)O1 |  |  |  |  | 10 clinical isolates sensitive |  | MIC | 4–16 µg/mL
Fc1ccccc1-n1ncc(C(c2ccccc2)n2ccnc2)c1-c1ccccc1 |  |  |  |  | ATCC 27294 |  | MIC90 | >100 µM
NC1CCN(c2c(F)cc3c(=O)c(C(=O)O)cn(C4CC4)c3c2Cl)C1 |  |  |  |  | DRUG-SUS |  | MIC90 | 0.25 µg/mL
Cc1ccsc1C(=S)Nc1ccc(Cl)c(C(=O)OC(C(C)C)C(C)C)c1 |  |  |  | 12.5 µg/mL | H37Rv | BACTEC | inhibition | 49%
COc1ccc2oc(=O)n(-c3ccc(C)cc3)c(=S)c2c1 | 21 d |  |  |  | My 331/88 |  | MIC | 32 µM
Cc1cnc(/C=N/NC(N)=S)cn1 |  |  |  |  | ETA-R |  | MIC | 12.5 µg/mL
Clc1ccccc1-c1c(C(c2ccccc2)n2ccnc2)cnn1-c1ccccc1 |  |  |  |  | ATCC 27294 |  | MIC50 | 56.3 µM
COc1ccc(-n2c(=O)oc3ccc(C)cc3c2=O)cc1 |  |  |  |  | CNCTC MY331/88 |  | MIC | 125 µM
COc1ccc(CCc2cc(OC)c3ccccc3n2)cc1OC |  |  |  |  | MT3 |  | MIC | 50 µg/mL
O=C1C2=C(OCO2)C(=O)c2cc(O)ccc21 |  |  |  | 12.5 µg/mL | H37Rv | BACTEC | inhibition | 80%
CC(C)Cc1ccc(C(=O)CCC(=O)NC[C@H]2CN(c3ccc(-n4cncn4)c(F)c3)C(=O)O2)cc1 |  |  |  |  | ATCC 27294 |  | MIC | 2 µg/mL
O=C(O)COc1ccc(C(=O)/C(SS/C(C(=O)c2ccc(OCC(=O)O)c(Cl)c2Cl)=C2\C=C(c3ccc(F)cc3)SS2)=C2/C=C(c3ccc(F)cc3)SS2)c(Cl)c1Cl |  |  |  |  | H37Rv | BACTEC | MIC bound | >12.5 µg/mL
CC(=O)NC[C@H]1CN(c2ccc(N3CCOCC3)c(F)c2)C(=O)O1 |  |  |  |  | 7R |  | MIC | 0.5 µg/mL
CC[C@H]1OC(=O)[C@H](C)[C@@H](O[C@H]2C[C@@](C)(OC)[C@@H](O)[C@H](C)O2)[C@H](C)[C@@H](O[C@@H]2O[C@H](C)C[C@H](N(C)C)[C@H]2O)[C@](C)(O)C[C@@H](C)CN(C)[C@H](C)[C@@H](O)[C@]1(C)O |  |  |  |  | ATCC 35820 |  | MIC | >8 µg/mL
CCOC(=O)c1ccc(NC(=O)ON=C(Cl)C(C)C)cc1 |  |  |  | 6.25 µg/mL | H37Rv | resazurin | inhibition | 0%
CC(=O)NNC(=O)CCCl |  |  |  |  |  |  | MIC | >200 µg/mL
Cc1ccc2oc(=O)n(-c3ccc(Cl)c(Cl)c3)c(=S)c2c1 | 14 d |  |  |  | My 331/88 |  | MIC | 0.5 µM
Clc1ccc(-n2ncc(C(c3ccccc3)n3ccnc3)c2-c2ccccc2Cl)c(Cl)c1 |  |  |  |  | ATCC 27294 |  | MIC90 | 26.2 µM

For reference, 5 entries again:

SMILES | conditions | mutations | cell line | dose | strain or isolate | method | endpoint | value
CCCCCCCOC(=O)n1[nH]c(=O)c2ccccc2c1=O |  |  |  |  |  |  | MIC | >200 µg/mL
Clc1ccc(-c2c(C(c3ccccc3)n3ccnc3)cnn2-c2ccc(Cl)cc2Cl)cc1 |  |  |  |  | ATCC 35837 (ethambutol-resistant) |  | MIC90 | ≥100 µM
O=C1CC(c2ccccc2)=NN1 |  |  |  |  |  |  | MIC | >200 µg/mL
C[C@H]1COc2c(N3CCN(C)CC3)c(F)cc3c(=O)c(C(=O)O)cn1c23 |  |  |  |  | 6S |  | MIC | 0.5 µg/mL
CCCCCc1cc(OC)c2ccccc2n1 |  |  |  |  | MT1 |  | MIC | 21 µg/mL